A short description of the data set: Light emission visibility test of coating films on glass under 365 nm ultraviolet light. The format is physicochemical. The following applies: ultraviolet irradiation 365 nm.

As to `O=C(OC[C@H]1O[C@@H](OC(=O)c2cc(O)c(O)c(OC(=O)c3cc(O)c(O)c(O)c3)c2)[C@H](OC(=O)c2cc(O)c(O)c(OC(=O)c3cc(O)c(O)c(O)c3)c2)[C@@H](OC(=O)c2cc(O)c(O)c(OC(=O)c3cc(O)c(O)c(O)c3)c2)[C@@H]1OC(=O)c1cc(O)c(O)c(OC(=O)c2cc(O)c(O)c(O)c2)c1)c1cc(O)c(O)c(OC(=O)c2cc(O)c(O)c(O)c2)c1` [compound 1, tannic acid], the “light emission at a wavelength in a visible range (in words)” value is recorded as “almost no light emission at a wavelength in a visible range was observed”.

For the origin of these results see patent US20240026086A1, “POLYPHENOL DERIVATIVE AND POLYMER MATERIAL” (TOPPAN INC., priority 2020, published 2024).
